Compound potency records, mixed from different reports. Data source: NIAID ChemDB in PubChem.

All rows: tests on isolated targets; organism: HIV-1; target: Protease; measure: IC50

Conditions beyond the fields shown may differ between rows. ICn is the concentration giving n% inhibition. An empty or dashed field is not shown.

smiles,changes,value
O=C(Cc1ccccc1)N1C2C3(CO)C(c4ccccc4)C4(CO)C1C1(CO)C(c5ccccc5)C2(CO)C3N(C(=O)Cc2ccccc2)C41,,~50 µM
CON[C@H](C(=O)NC(=O)[C@H]1N(C(=O)[C@@H](O)[C@H](Cc2ccccc2)NC(=O)[C@@H](NC(=O)[C@H](Cc2ccccc2)NC(C)=O)C(C)C)CSC1(C)C)C(C)C,,0.008 µM
CC(C)CN(C[C@@H](O)[C@H](Cc1ccccc1)NC(=O)OCc1ccccc1)S(=O)(=O)N1CCN(C)CC1,,>0.1 µM
CC(C)CN(C[C@@H](O)[C@H](Cc1ccc(-c2cccnc2)cc1)NC(=O)O[C@H]1CCOC1)S(=O)(=O)c1ccc(N)cc1,,0.00043 µM
C[C@H]1[C@H](C)CC[C@]2(C(=O)O)CC[C@]3(C)C(=CC[C@@H]4[C@@]5(C)CC[C@H](O)C(C)(C)[C@@H]5CC[C@]43C)[C@H]12,,8 µM
COc1ccc(C2C3(CO)C4N(C(=O)Oc5ccccc5)C5C2(CO)C2N(C(=O)Oc6ccccc6)C3C4(CO)C(c3ccc(OC)cc3)C52CO)cc1,,>50 µM
Cc1cc(C)c(OCC(=O)N[C@@H](Cc2ccccc2)C[C@H](O)[C@H](Cc2ccccc2)NC(=O)O[C@H]2CO[C@H]3OCC[C@H]32)c(C)c1N,,<0.0005 µM
COC(=O)N1C2C3(CO)C(c4ccc(OC)cc4)C4(CO)C1C1(CO)C(c5ccc(OC)cc5)C2(CO)C3N(C(=O)OC)C41,,>50 µM
N=S(=O)(C[C@H](Cc1ccccc1)C(=O)N[C@H]1c2ccccc2C[C@H]1O)C[C@H](Cc1ccccc1)C(=O)N[C@H]1c2ccccc2C[C@H]1O,,0.1539 µM
O=C(Oc1ccccc1)N1C2C3C4N(C(=O)Oc5ccccc5)C5C(C1C5(CO)[C@H]3c1ccccc1)[C@@H](c1ccccc1)C24CO,,0.3 µM
CC(C)(C)NC(=O)[C@@H]1C[C@@H]2CCCC[C@@H]2CN1C[C@@H](O)C(NC(=O)[C@H](CC(N)=O)NC(=O)c1ccc2ccccc2n1)c1ccc(-c2cccs2)cc1,,1.5 µM
CC1(C)CC[C@]2(C)CC[C@]3(C)C(=CC[C@@H]4[C@@]5(C)CC[C@H](O)C(C)(C)[C@@H]5CC[C@]43C)[C@@H]2C1,,>100 µM
CC[C@H](C)[C@H](NC(=O)[C@H](Cc1ccccc1)NC[C@H](Cc1ccccc1)NC(=O)OC(C)(C)C)C(=O)N[C@@H](Cc1ccccc1)C(=O)OC,,>10 µM
CC(=O)N(CC[C@@H](O)[C@H](Cc1ccccc1)NC(=O)c1cccc(O)c1C)[C@@H](Cc1ccc(O)cc1)C(=O)NC(C)(C)C,,>100 µM
CC(C)[C@H](NC(=O)[C@H](C)NC(=O)[C@H](CO)NC(=O)OCc1ccccc1)C(=O)N[C@@H](Cc1ccccc1)[C@@H](O)[C@H](O)[C@H](Cc1ccccc1)NC(=O)[C@@H](NC(=O)[C@H](C)NC(=O)[C@H](CO)NC(=O)OCc1ccccc1)C(C)C,PR-V82F,0.058 µM
C[C@@H](O)[C@H](NC(=O)CCCCCCCCCCCCCCC(=O)N[C@@H](CC(N)=O)C(=O)N[C@@H](Cc1ccccc1)C(=O)O)C(=O)N[C@H](C(=O)N[C@@H](Cc1ccccc1)C(N)=O)C1CCCCC1,,0.68 µM
CCN(CC[C@@H](O)[C@H](Cc1ccccc1)NC(=O)c1cccc(O)c1C)S(=O)(=O)c1ccc(C)cc1,,1.6 µM
Cc1cc([N+](=O)[O-])cc(C)c1OCC(=O)N[C@@H](Cc1ccccc1)C[C@H](O)[C@H](Cc1ccccc1)NC(=O)OC1CO[C@H]2OCC[C@@H]12,,<0.0005 µM
COc1ccc(S(=O)(=O)N(CC(C)C)C[C@@H](O)[C@H](Cc2ccc(I)cc2)NC(=O)O[C@H]2CCOC2)cc1,,0.00192 µM
Cc1cc(C)c(OCC(=O)N[C@@H](Cc2ccccc2)C[C@H](O)[C@H](Cc2ccccc2)NC(=O)O[C@H]2CO[C@H]3OCC[C@H]32)c(C)c1,,<0.0005 µM
CC(C)(C)NS(=O)(=O)N(C[C@@H](O)[C@H](Cc1ccccc1)NC(=O)OCc1ccccc1)C1CCCCC1,,<10 µM
C=C(C)[C@@H]1CC[C@]2(C(=O)O)CC[C@]3(C)[C@H](CC[C@@H]4[C@@]5(C)CC[C@H](OC(=O)CC(=O)O)C(C)(C)C5CC[C@]43C)[C@@H]12,,6 µM
COC(=O)N1C2C3(CO)C(c4ccccc4)C4(CO)C1C1(CO)C(c5ccccc5)C2(CO)C3N(C(=O)OC)C41,,>50 µM
CC(=O)Nc1ccc(S(=O)(=O)N(Cc2ccccc2)C[C@@H](O)[C@H](CCc2ccccc2)NC(=O)Cc2c[nH]c3ccccc23)cc1,,0.014 µM
Cc1ccc(S(=O)(=O)N[C@@H](C)C(=O)N[C@H](C(=O)N[C@@H](Cc2ccccc2)[C@@H](O)[C@H](O)[C@H](Cc2ccccc2)NC(=O)[C@@H](NC(=O)[C@H](C)NS(=O)(=O)c2ccc(C)cc2)C(C)C)C(C)C)cc1,,0.005 µM
Cc1cc(O)cc(C)c1OCC(=O)N[C@@H](Cc1ccccc1)C[C@H](O)[C@H](Cc1ccccc1)NC(=O)O[C@H]1CO[C@H]2OCC[C@H]21,,<0.0005 µM
CC1(C)CC[C@]2(C(=O)O)CC[C@]3(C)C(=CCC4[C@@]5(C)CC[C@H](OC(=O)C(=O)O)C(C)(C)C5CC[C@]43C)C2C1,,20 µM
CNS(=O)(=O)N(CC(C)C)C[C@@H](O)[C@H](Cc1ccccc1)NC(=O)OCc1ccccc1,,>0.1 µM
CC(C)CN(C[C@@H](O)[C@H](Cc1ccc(-c2ccncc2)cc1)NC(=O)O[C@H]1CCOC1)S(=O)(=O)c1ccc(N)cc1,,0.00048 µM
CC(C)=CCc1ccc2c(C3=C(O)C(=O)C(c4c[nH]c5ccccc45)=C(O)C3=O)c[nH]c2c1,,>0.5 µM
CC(C)[C@H](NC(=O)[C@H](C)NC(=O)c1cccnc1)C(=O)N[C@@H](Cc1ccccc1)C(O)C(O)[C@H](Cc1ccccc1)NC(=O)[C@@H](NC(=O)[C@H](C)NC(=O)c1cccnc1)C(C)C,PR-V82F,0.043 µM
Cc1cc(N)cc(C)c1OCC(=O)N[C@@H](Cc1ccccc1)C[C@H](O)[C@H](Cc1ccccc1)NC(=O)O[C@@H]1CO[C@H]2OCC[C@H]21,,<0.0005 µM
O=C1C(O)=C(c2c[nH]c3ccccc23)C(=O)C(O)=C1c1c[nH]c2ccccc12,,0.24 µM
CCC(CC[C@@H](C)[C@H]1CC[C@H]2[C@@H]3CC=C4C[C@@H](OC5OC(CO)C(O)C(O)C5O)CC[C@]4(C)[C@H]3CC[C@]12C)C(C)C,,>100 µM
CC(C)CN(C[C@@H](O)[C@H](Cc1ccccc1)NC(=O)OCc1ccccc1)S(=O)(=O)N1CCCC1,,>0.1 µM
CC[C@H](C)[C@H](NC(=O)CN(O)C(=O)[C@H](Cc1ccccc1)NC(=O)OC(C)(C)C)C(=O)N[C@@H](Cc1ccccc1)C(=O)O,,>10 µM
O=C(CCc1ccc(O)cc1)c1c(O)cc(O)cc1O[C@@H]1O[C@H](CO)[C@@H](O)[C@H](O)[C@H]1O,,>100 µM
CC(=O)N(CCC(O)[C@H](Cc1ccccc1)NC(=O)OC(C)(C)C)[C@@H](Cc1ccccc1)C(=O)NC(C)(C)C,,0.5 µM
C[C@H]1[C@H](C)CC[C@]2(C(=O)O)CC[C@]3(C)C(=CC[C@@H]4[C@@]5(C)CC[C@H](OC(=O)C(=O)O)C(C)(C)[C@@H]5CC[C@]43C)[C@H]12,,7 µM
COc1ccc(S(=O)(=O)N(CC(C)C)C[C@@H](O)[C@H](Cc2ccc(-c3ccc(OC)c(C)c3)cc2)NC(=O)O[C@H]2CCOC2)cc1,,0.0112 µM
CC(=O)N(CC[C@@H](O)[C@H](Cc1ccccc1)NC(=O)c1cccc(O)c1C)[C@@H](Cc1ccc(OCc2ccccc2)cc1)C(=O)NC(C)(C)C,,3.8 µM
CC(C)[C@H](NC(=O)[C@H](C)NC(=O)OCc1ccccc1)C(=O)N[C@@H](Cc1ccccc1)[C@@H](O)[C@H](O)[C@H](Cc1ccccc1)NC(=O)[C@@H](NC(=O)[C@H](C)NC(=O)OCc1ccccc1)C(C)C,PR-V82F,0.015 µM
CCN(CC[C@@H](O)[C@H](Cc1ccccc1)NC(=O)c1cccc(O)c1C)S(=O)(=O)c1c(C)cc(C)cc1C,,0.8 µM
CC(C)(C)OC(=O)N[C@H]1CCCCNC(=O)CCC(=O)NCCCC[C@@H](C(N)=O)NC(=O)[C@H](Cc2ccccc2)NC(=O)C[C@H](Cc2ccccc2)NC1=O,,>10 µM
CC(=O)N(CC[C@@H](O)[C@H](Cc1ccccc1)NC(=O)c1cccc(O)c1C)[C@@H](Cc1ccccc1)C(=O)NCc1ccccc1,,1.5 µM
Cc1cc(OCCN2CCOCC2)cc(C)c1OCC(=O)N[C@@H](Cc1ccccc1)C[C@H](O)[C@H](Cc1ccccc1)NC(=O)O[C@H]1CO[C@H]2OCC[C@H]21,,<0.0005 µM
CCn1ccc2cc(-c3ccc(C[C@H](NC(=O)O[C@H]4CCOC4)[C@H](O)CN(CC(C)C)S(=O)(=O)c4ccc(N)cc4)cc3)cnc21,,0.00151 µM
CC(C)C[C@H](NC(=O)[C@@H](NC(=O)CCCCCCCCCCCCCCC(=O)N[C@@H](CS(C)(=O)=O)C(=O)N[C@@H](Cc1ccccc1)C(=O)O)C(C)O)C(=O)N[C@@H](Cc1ccccc1)C(N)=O,,2.9 µM
Cc1cc2n[nH]nc2c(C)c1OCC(=O)N[C@@H](Cc1ccccc1)C[C@H](O)[C@H](Cc1ccccc1)NC(=O)O[C@H]1CO[C@H]2OCC[C@H]21,,<0.0005 µM
CC(=O)N1C2C3C4N(C(C)=O)C5C(C1C5(CO)[C@H]3c1ccccc1)[C@@H](c1ccccc1)C24CO,,0.312 µM
CC(C)CN(C[C@@H](O)[C@H](Cc1ccccc1)NC(=O)OC1CO[C@H]2OC[C@H](O)[C@@H]12)S(=O)(=O)c1ccc(N)cc1,,0.0025 µM
COc1ccc(C2C3(CO)C4N(C(=O)Cc5ccccc5)C5C2(CO)C2N(C(=O)Cc6ccccc6)C3C4(CO)C(c3ccc(OC)cc3)C52CO)cc1,,>50 µM
CSCC[C@H](NC(=O)[C@H](CC(N)=O)NC(=O)CCCCCCCCCCCCCCC(=O)N[C@H](C(=O)N[C@@H](CC(C)C)C(=O)N[C@@H](Cc1ccccc1)C(N)=O)C(C)O)C(=O)O,,>5.5 µM
Cc1cc2oc(=O)[nH]c2c(C)c1OCC(=O)N[C@@H](Cc1ccccc1)C[C@H](O)[C@H](Cc1ccccc1)NC(=O)O[C@H]1CO[C@H]2OCC[C@H]21,,<0.0005 µM
CC(C)[C@H](NC(=O)[C@H](C)NC(=O)Oc1ccccc1)C(=O)NC(=O)[C@H]1N(C(=O)[C@@H](O)[C@H](Cc2ccccc2)NC(=O)[C@@H](NC(=O)[C@H](C)NC(=O)Oc2ccccc2)C(C)C)CSC1(C)C,,0.02 µM

Repeating the first 6 entries:

smiles	changes	value
O=C(Cc1ccccc1)N1C2C3(CO)C(c4ccccc4)C4(CO)C1C1(CO)C(c5ccccc5)C2(CO)C3N(C(=O)Cc2ccccc2)C41		~50 µM
CON[C@H](C(=O)NC(=O)[C@H]1N(C(=O)[C@@H](O)[C@H](Cc2ccccc2)NC(=O)[C@@H](NC(=O)[C@H](Cc2ccccc2)NC(C)=O)C(C)C)CSC1(C)C)C(C)C		0.008 µM
CC(C)CN(C[C@@H](O)[C@H](Cc1ccccc1)NC(=O)OCc1ccccc1)S(=O)(=O)N1CCN(C)CC1		>0.1 µM
CC(C)CN(C[C@@H](O)[C@H](Cc1ccc(-c2cccnc2)cc1)NC(=O)O[C@H]1CCOC1)S(=O)(=O)c1ccc(N)cc1		0.00043 µM
C[C@H]1[C@H](C)CC[C@]2(C(=O)O)CC[C@]3(C)C(=CC[C@@H]4[C@@]5(C)CC[C@H](O)C(C)(C)[C@@H]5CC[C@]43C)[C@H]12		8 µM
COc1ccc(C2C3(CO)C4N(C(=O)Oc5ccccc5)C5C2(CO)C2N(C(=O)Oc6ccccc6)C3C4(CO)C(c3ccc(OC)cc3)C52CO)cc1		>50 µM